Compound potency records, mixed from different reports. Data source: NIAID ChemDB in PubChem.

Shared fields: host cell toxicity; endpoint: CC50

An empty or dashed field is not shown.

SMILES,cells,read by,result
CCOC(=O)/C=C/[C@H](Cc1ccccc1)NC(=O)[C@H](Cc1ccccc1)NC(=O)OCc1ccccc1,HeLa cells,cell count,121.4 µM
NCC(=O)NCCN1CCC(NC(=O)C(=O)Nc2ccc(Cl)cc2)CC12CCCCC2,PM1,WST,54 µM
Cc1ccc(-c2nc(CNc3ccnc4cc(Cl)ccc34)[nH]c2CN2CCCC2)cc1,HMEC-1,MTT,3.658 µM
O=C(O)c1cn(/N=C/c2ccc(Cl)cc2)c(=O)c2ccccc12,HEP-2/L-929/VERO,-,100 µM
CC(=O)Cc1cn([C@H]2C[C@H](O)[C@@H](CO)O2)c(=O)[nH]c1=O,HELF,-,>800 µg/mL
CCN(CC)Cc1[nH]c(CNc2ccnc3cc(Cl)ccc23)nc1-c1ccccc1,HMEC-1,MTT,9.144 µM
CNC(=O)/C=C/[C@H](Cc1ccccc1)NC(=O)[C@H](Cc1ccccc1)NC(=O)OCc1ccccc1,HeLa cells,cell count,376 µM
CCOC(=O)CCCCCOc1cccc(CN(C(=O)c2ccc(-c3ccoc3)cc2)C(C)C)c1,RAJI,-,>20 µM
COc1c2c(c(OC)c3ccccc13)CN(c1ccc(Cl)cc1)C(=N)C2,J774A.1 macrophages,neutral red,24.12 µM
CC(C)N(Cc1cccc(OCCCCCC(=O)OC(=O)O)c1)C(=O)c1ccc(-c2cccc(-c3ccccc3)c2)cc1,RAJI,-,>20 µM
O=C(O)c1cn(/N=C/c2ccc(O)cc2)c(=O)c2ccccc12,HEP-2/L-929/VERO,-,300 µM
Cc1cn([C@@H]2C[C@@H](N=[N+]=[N-])[C@H](COP(=O)(CI)OC[C@H]3O[C@@H](n4cc(C)c(=O)[nH]c4=O)C[C@@H]3N=[N+]=[N-])O2)c(=O)[nH]c1=O,CEM-SS,-,39 µM
N=C(N)N1CCC(NC(=O)C(=O)Nc2ccc(Cl)cc2)CC12CCCCC2,PM1,WST,48 µM
CCN(CC)Cc1[nH]c(CNc2ccnc3cc(Cl)ccc23)nc1-c1ccc(Cl)cc1,HMEC-1,MTT,2.442 µM
N#CCN(CC#N)CCN1CCC(NC(=O)C(=O)Nc2ccc(Cl)cc2)CC12CCCCC2,PM1,WST,57 µM
CC(C)N(Cc1cccc(OCCCCCC(=O)OC(=O)O)c1)C(=O)c1ccc(-c2ccc3cc[nH]c3c2)cc1,RAJI,-,>20 µM
Clc1ccc2c(NCc3nc(-c4ccccc4)c(CN4CCCC4)[nH]3)ccnc2c1,HMEC-1,MTT,8.661 µM
O=C(O)c1cn(/N=C/C=C/c2ccc([N+](=O)[O-])cc2)c(=O)c2ccccc12,HEP-2/L-929/VERO,-,150 µM
Cc1cn([C@@H]2C[C@@H](N=[N+]=[N-])[C@H](COP(=O)(COc3ccccc3)OC[C@H]3O[C@@H](n4cc(C)c(=O)[nH]c4=O)C[C@@H]3N=[N+]=[N-])O2)c(=O)[nH]c1=O,CEM-SS,-,37 µM
COc1c2c(c(OC)c3ccccc13)CN(c1ccccc1)C(=N)C2,J774A.1 macrophages,neutral red,56.55 µM
CCOC(=O)CCCCCOc1cccc(CN(C(=O)c2ccc(-c3cccc(C(C)=O)c3)cc2)C(C)C)c1,HEK 293,-,>20 µM
CCCOc1ccc(NC(=O)NOCCCCCC(=O)NO)cc1,NFF cells,sulforhodamine,11.9 µM
C=Cc1cn([C@@H]2O[C@H](CO)[C@@H](O)[C@@H]2F)c(=O)[nH]c1=O,HELF,-,11 µg/mL
CC(C)N(Cc1cccc(OCCCCCC(=O)OC(=O)O)c1)C(=O)c1ccc(-c2ccc3ccccc3c2)cc1,HEK 293,-,>20 µM
Cc1cn([C@@H]2C[C@@H](N=[N+]=[N-])[C@H](COP(=O)(CF)OC[C@H]3O[C@@H](n4cc(C)c(=O)[nH]c4=O)C[C@@H]3N=[N+]=[N-])O2)c(=O)[nH]c1=O,CEM-SS,-,29 µM
O=C(N/N=C/c1ccc(O)cc1)Nc1cccc2nsnc12,Cf2Th-CD4/CXCR4,ATP,63 µM
CCOC(OCC)C1=NCCc2cc(OC)c(OC)cc21,BJ,-,<7.5 µM
O=c1[nH]c(=O)n([C@@H]2O[C@H](CO)[C@@H](O)[C@@H]2O)cc1/C=C/Br,HELF,-,>800 µg/mL
N=c1cc2c(cn1-c1cccc(C(=O)O)c1)C(=O)c1ccccc1C2=O,J774A.1 macrophages,neutral red,153 µM
CCN(CC)CCCC(C)Nc1ccnc2cc(Cl)ccc12,HeLa cells,cell count,121.9 µM
N=c1cc2c(cn1-c1ccccc1Br)C(=O)c1ccccc1C2=O,J774A.1 macrophages,neutral red,31.24 µM
O=C(Nc1ccc(Cl)c(F)c1)C(=O)NC1CCNC2(CCCCC2)C1,PM1,WST,219 µM
O=C(O)c1ccccc1/C=N/n1cc(C(=O)O)c2ccccc2c1=O,HEP-2/L-929/VERO,-,600 µM
Clc1ccc2c(NCc3nc4ccccc4[nH]3)ccnc2c1,HMEC-1,MTT,2.401 µM
Cc1ccc(NC(=O)C(=O)NC2CCNC3(CCCCC3)C2)cc1,PM1,WST,115 µM
C=Cc1cn([C@@H]2O[C@H](CO)[C@@H](O)[C@@H]2O)c(=O)[nH]c1=O,HELF,-,650 µg/mL
Clc1ccc2c(NCc3ncc(-c4ccc(N5CCCC5)cc4)[nH]3)ccnc2c1,HMEC-1,MTT,2.426 µM
O=C(O)c1cn(/N=C/C=C/c2ccccc2)c(=O)c2ccccc12,HEP-2/L-929/VERO,-,100 µM
COC(=O)Cc1cn([C@H]2C[C@H](O)[C@@H](CO)O2)c(=O)[nH]c1=O,HELF,-,400 µg/mL
Clc1ccc(-c2cnc(CNc3ccnc4cc(Cl)ccc34)[nH]2)cc1,HMEC-1,MTT,7.447 µM
CCc1nc2sc(C(N)=O)c(N)c2cc1C,CEM-SS,XTT,190 µM
O=C(Nc1ccc2c(c1)OCO2)C(=O)NC1CCNC2(CCCCC2)C1,PM1,WST,211 µM
CCOC(=O)CCCCCOc1cccc(CN(C(=O)c2ccc(-c3cc(OC)cc(OC)c3)cc2)C(C)C)c1,BJ,-,>20 µM
N=c1cc2c(cn1-c1ccc(Br)cc1)C(=O)c1ccccc1C2=O,J774A.1 macrophages,neutral red,15.34 µM
NCCN1CCC(NC(=O)C(=O)Nc2ccc(Cl)cc2)CC12CCCCC2,PM1,WST,45 µM
N=c1cc2c(cn1-c1ccc([N+](=O)[O-])cc1)C(=O)c1ccccc1C2=O,J774A.1 macrophages,neutral red,19.48 µM
Cc1cn([C@@H]2C[C@@H](N=[N+]=[N-])[C@H](COP(=O)(CN=[N+]=[N-])OC[C@H]3O[C@@H](n4cc(C)c(=O)[nH]c4=O)C[C@@H]3N=[N+]=[N-])O2)c(=O)[nH]c1=O,CEM-SS,-,24.5 µM
O=C(CCCCCCC(=O)Nc1ccccc1)NO,NFF cells,sulforhodamine,4.9 µM
COc1c2c(c(OC)c3ccccc13)CN(c1ccc(C)cc1)C(=N)C2,J774A.1 macrophages,neutral red,23.25 µM

For reference, 5 entries again:

SMILES | cells | read by | result
C=Cc1cn([C@@H]2O[C@H](CO)[C@@H](O)[C@@H]2O)c(=O)[nH]c1=O | HELF | - | 650 µg/mL
O=C(CCCCCCC(=O)Nc1ccccc1)NO | NFF cells | sulforhodamine | 4.9 µM
Cc1cn([C@@H]2C[C@@H](N=[N+]=[N-])[C@H](COP(=O)(CI)OC[C@H]3O[C@@H](n4cc(C)c(=O)[nH]c4=O)C[C@@H]3N=[N+]=[N-])O2)c(=O)[nH]c1=O | CEM-SS | - | 39 µM
Clc1ccc2c(NCc3ncc(-c4ccc(N5CCCC5)cc4)[nH]3)ccnc2c1 | HMEC-1 | MTT | 2.426 µM
O=C(O)c1cn(/N=C/C=C/c2ccccc2)c(=O)c2ccccc12 | HEP-2/L-929/VERO | - | 100 µM

Conditions beyond the fields shown may differ between rows. CCn: concentration that lowers growth or viability of the cells by n%.